# PubChem BioAssay AID1259414 | Drosophila RNAi Screening Center | 2018
# Purpose: 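Host factors increasing or decreasing Wolbachia levels in cultured fly cells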 (primary screen)
# Cells: Drosophila JW18 cells infected with Wolbachia
# Knock-down reagent: long dsRNA against Drosophila genes, 0.25 µg dsRNA per well of a 384-well plate
# Duration: 5 days
# Conditions: cells persistently infected with Wolbachia before knock-down; no added drug
# Measurement: 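Imaged fluorescence in situ signal for Wolbachia 23S rRNA per DAPI-counted host cell, given as a robust z-score within each plate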
# Direction: Wolbachia per cell robust z: higher = more Wolbachia per host cell than the plate typical
# Call rule: 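Hit when robust z is 1.5 or more, or -1.5 or less, in at least two of three replicates; excludes dsRNAs with several or no targets, genes not expressed in JW18 and well A1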
# The deposit covers about 24,000 reagents; this is a random part of those that have a named target and a result. Of all reagents, about 1,210 (5%) got an active call. 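Inactive calls also include excluded dsRNAs with several or no targets, genes unexpressed in JW18, and well A1, regardless of score.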 Names joined by + are all predicted targets of the reagent. Reagent sequences are not shown.
Gene,dsRNA,"Wolbachia per cell robust z, rep 1","Wolbachia per cell robust z, rep 2","Wolbachia per cell robust z, rep 3",activity call
CG1024,DRSC12496,1.7,-0.17,0.158,inactive
eIF3g1 (eukaryotic translation initiation factor 3 subunit g1),DRSC18427,2.31,0.0206,3.27,active
eIF3g1 (eukaryotic translation initiation factor 3 subunit g1),DRSC29282,0.947,0.675,-0.237,inactive
CG9643,DRSC00722,1.21,0.715,1.09,inactive
CG9643,DRSC27948,1.08,-0.55,-1.38,inactive
Gr2a (Gustatory receptor 2a),DRSC18603,-1.75,0.44,0.522,inactive
CG9784,DRSC20210,0.32,0.759,-0.124,inactive
CG9784,DRSC28204,0.125,-0.167,0.483,inactive
pain (painless),DRSC04273,0.341,-0.874,0.187,inactive
pain (painless),DRSC28351,-1.01,0.309,0.771,inactive
sloth1 + sloth2,DRSC17922,-3.28,-1.43,-1.19,inactive
alpha-Man-Ib (alpha-Mannosidase class I b),DRSC14418,0.648,-7.1,-0.474,inactive
alpha-Man-Ib (alpha-Mannosidase class I b),DRSC26131,-0.456,-0.0911,0.184,inactive
RecQ4 (RecQ4 helicase),DRSC11265,-0.116,-1.13,-0.965,inactive
RecQ4 (RecQ4 helicase),DRSC27616,0.829,1.47,0.911,inactive
Pop1 (POP1 ribonuclease P/MRP subunit),DRSC17739,0.534,-6.43,0.656,inactive
Top1 (Topoisomerase 1),DRSC20295,-0.256,-2.62,-0.069,inactive
Atu (Another transcription unit),DRSC12123,0.563,-0.35,0.479,inactive
Cyp6a18 (Cytochrome P450 6a18),DRSC16632,0.00552,1.16,0.353,inactive
CG5910,DRSC11786,-4.11,0.551,-0.5,inactive
smp-30 (Senescence marker protein-30),DRSC17059,-5.47,0.255,0.248,inactive
smp-30 (Senescence marker protein-30),DRSC26913,-0.586,-0.939,-0.922,inactive
7SLRNA:CR32864 + 7SLRNA:CR42652,DRSC22968,-0.88,-0.827,-0.119,inactive
Lst (Limostatin),DRSC07146,-2.8,0.324,-0.249,inactive
Lst (Limostatin),DRSC29304,-2.24,0.654,-0.209,inactive
CG16713,DRSC00477,-2.99,-0.883,-0.668,inactive
CG30100 + CG42372,DRSC05602,-0.302,1.34,-10.8,inactive
CG30100 + CG42372,DRSC30025,0.197,-0.535,0.117,inactive
CG13062,DRSC09945,-0.952,0.714,0.3,inactive
CG13062,DRSC28840,0.686,0.179,0.5,inactive
CG13062,DRSC39057,-2.22,-0.113,-0.19,inactive
CG33137,DRSC22131,-1.13,-1.77,-1.42,inactive
CG31245,DRSC15498,-0.159,-0.0941,-0.0685,inactive
CG2839,DRSC00544,-1.07,0.0139,-3.24,inactive
CG2839,DRSC28090,1.4,0.591,1.07,inactive
Smurf (SMAD specific E3 ubiquitin protein ligase),DRSC07641,-1.69,0.506,-0.0815,inactive
Smurf (SMAD specific E3 ubiquitin protein ligase),DRSC29832,0.327,0.0203,0.304,inactive
CG14312,DRSC14791,-2,-1.6,0.265,inactive
CG3604,DRSC00618,-0.562,-4.47,0.549,inactive
CAH4 (Carbonic anhydrase 4),DRSC22433,0.87,0.497,0.416,inactive
Eip75B (Ecdysone-induced protein 75B),DRSC23047,-2.31,-1.71,0.376,active
Eip75B (Ecdysone-induced protein 75B),DRSC37540,0.679,-1.65,0.112,inactive

Continued, starting with the last 9 of the part before.
Gene,dsRNA,"Wolbachia per cell robust z, rep 1","Wolbachia per cell robust z, rep 2","Wolbachia per cell robust z, rep 3",activity call
CG2839,DRSC00544,-1.07,0.0139,-3.24,inactive
CG2839,DRSC28090,1.4,0.591,1.07,inactive
Smurf (SMAD specific E3 ubiquitin protein ligase),DRSC07641,-1.69,0.506,-0.0815,inactive
Smurf (SMAD specific E3 ubiquitin protein ligase),DRSC29832,0.327,0.0203,0.304,inactive
CG14312,DRSC14791,-2,-1.6,0.265,inactive
CG3604,DRSC00618,-0.562,-4.47,0.549,inactive
CAH4 (Carbonic anhydrase 4),DRSC22433,0.87,0.497,0.416,inactive
Eip75B (Ecdysone-induced protein 75B),DRSC23047,-2.31,-1.71,0.376,active
Eip75B (Ecdysone-induced protein 75B),DRSC37540,0.679,-1.65,0.112,inactive
CG42758,DRSC10021,-0.00297,-1.22,-0.678,inactive
CG11191,DRSC23224,0.95,0.689,0.315,inactive
CG11191,DRSC28710,-1.21,0.33,-0.632,inactive
CG7110,DRSC03011,-0.837,-0.312,-0.464,inactive
CG7110,DRSC03012,0.748,0.781,0.871,inactive
Lrpprc2 (Leucine-rich pentatricopeptide repeat containing 2),DRSC18605,0.511,-0.0897,-2.14,inactive
Lrpprc2 (Leucine-rich pentatricopeptide repeat containing 2),DRSC29751,-0.872,1.1,0.331,inactive
phr6-4 ((6-4)-photolyase),DRSC03589,-0.485,-0.579,0.178,inactive
phr6-4 ((6-4)-photolyase),DRSC26873,1.39,1.71,0.38,inactive
CG13024,DRSC09904,0.76,-0.562,0.671,inactive
CG13024,DRSC29921,1.49,0.544,1.25,inactive
senju,DRSC02366,0.131,-3.43,-3.25,active
Sec23 (Secretory 23),DRSC12387,0.175,-0.423,-0.22,inactive
snRNP-U1-C (small ribonucleoprotein particle U1 subunit C),DRSC15804,0.0556,-0.339,-0.453,inactive
Start1,DRSC04384,-5.02,0.0974,-2.19,active
Start1,DRSC28343,-1.54,1.57,0.628,inactive
CG32413,DRSC21591,0.765,-2,-1.38,inactive
CG30389,DRSC04077,-1.73,-0.12,-5.76,active
CG30389,DRSC04452,-1.15,0.334,0.272,inactive
CG30389,DRSC26370,-0.176,0.974,-0.45,inactive
CG13917,DRSC08386,-1.12,0.834,0.0399,inactive
CG13917,DRSC26895,0.974,0.966,1.57,inactive
erm (earmuff),DRSC00700,-0.0715,-0.16,-0.702,inactive
topi (matotopetli),DRSC16431,0.0494,-2.45,0.3,inactive
Larp7 (La related protein 7),DRSC18798,0.4,0.124,-1.03,inactive
Larp7 (La related protein 7),DRSC27687,-1.21,-0.268,1.01,inactive
CG6847,DRSC19213,1.12,0.302,1.32,inactive
CG6847,DRSC20009,1.32,0.988,0.0149,inactive
Hsp60D (Heat shock protein 60D),DRSC02543,1.36,-0.631,0.15,inactive
Hsp60D (Heat shock protein 60D),DRSC29118,0.852,0.744,1.45,inactive
CG10949,DRSC02112,0.0876,-1.32,-0.103,inactive
CG10949,DRSC27310,0.811,1.13,0.164,inactive
CG34269,DRSC38855,-1.74,-0.61,0.398,inactive
RpL23A (Ribosomal protein L23A),DRSC08694,0.0533,-0.32,2.2,inactive
RpL23A (Ribosomal protein L23A),DRSC22035,0.583,1.04,1.09,inactive
RpL23A (Ribosomal protein L23A),DRSC25828,1.6,5.76,3.73,active
shv (shriveled),DRSC00640,-0.545,-0.676,2.89,inactive
shv (shriveled),DRSC22122,0.17,0.905,1.4,inactive
shv (shriveled),DRSC26482,0.32,0.411,-0.311,inactive
shv (shriveled),DRSC26483,-0.297,-0.618,-0.0828,inactive
mkg-p (monkey king protein),DRSC10777,0.403,0.678,0.362,inactive
CG43707,DRSC00280,-1.74,-0.0136,0.298,inactive
CG43707,DRSC22869,1.28,0.314,0.592,inactive
CG43707,DRSC22912,-1.56,-0.41,-0.447,inactive
CG43707,DRSC25146,0.954,1.84,1.99,inactive
